Holding throughout (experiment): fold change of IC50 against reference virus; higher = more resistant; Cell-culture drug susceptibility tests of virus bearing the protease of each isolate, gathered from many studies.
Compound in one experiment: CC(C)(C)NC(=O)[C@@H]1CN(Cc2cccnc2)CCN1C[C@@H](O)C[C@@H](Cc1ccccc1)C(=O)N[C@H]1c2ccccc2C[C@H]1O [indinavir]
Compound in the next experiment: CC(C)(C)NC(=O)[C@@H]1C[C@@H]2CCCC[C@@H]2CN1C[C@@H](O)[C@H](Cc1ccccc1)NC(=O)[C@H](CC(N)=O)NC(=O)c1ccc2ccccc2n1 [saquinavir]
Compound in a further experiment: COC(=O)N[C@H](C(=O)N[C@@H](Cc1ccccc1)[C@@H](O)CN(Cc1ccc(-c2ccccn2)cc1)NC(=O)[C@@H](NC(=O)OC)C(C)(C)C)C(C)(C)C [atazanavir]
Compound in the next experiment: Cc1c(O)cccc1C(=O)N[C@@H](CSc1ccccc1)[C@H](O)CN1C[C@H]2CCCC[C@H]2C[C@H]1C(=O)NC(C)(C)C [nelfinavir]
Compound in a further experiment: CC(C)c1nc(CN(C)C(=O)N[C@H](C(=O)N[C@@H](Cc2ccccc2)C[C@H](O)[C@H](Cc2ccccc2)NC(=O)OCc2cncs2)C(C)C)cs1 [ritonavir]

Fold change is the IC50 on the isolate divided by the IC50 on a reference virus; 1 = unchanged, higher = more resistant. Changes are given against the subtype B consensus. No active / inactive call. The values were gathered from many studies (numbered anew) with different assays, which the source does not name. Most viruses are clinical isolates; some are laboratory strains or clones with known resistance changes. Isolates with mixed residues are left out; stretches that were not sequenced show no change. Round top values that many isolates share are read here as limits; other very high values and 0.1 may be limits too. The protease changes I3V and N37S, insertions and deletions cannot be read from the source.

In the case of “HIV-1 isolate 1177 (protease changes: L10F I13V D30N L33I E35D M36I N37D L63P I64V H69Y A71V V77I N88D, study 115)”, the “fold change of IC50 against reference virus” value (from here on “fold change of IC50”) was 2.4 with indinavir; 2.4 with saquinavir; 4.1 with atazanavir; 83 with nelfinavir; 1.3 with ritonavir.

On to “HIV-1 isolate 316 (protease changes: L10F I13V I15R D30N L33I E35D M36I R41K L63P I64V N88D, study 115)”, for which the “fold change of IC50” value stood at 1.4 with indinavir; 1.1 in the experiment with saquinavir; 1.5 in the experiment with atazanavir; 45 with nelfinavir; 1.1 with ritonavir.

Regarding “HIV-1 isolate 383 (protease changes: L10R D30N E35D M36I N37D K45R I54L L63P H69Q A71V N88D L90M I93L, study 115)”, the “fold change of IC50” value with indinavir amounted to 5.2; in the experiment with saquinavir it was 21; with atazanavir it was 14; with nelfinavir it was 140; with ritonavir it was 10.

For the test system “HIV-1 isolate 248 (protease changes: K45R I50L L63P I64L V77I I93L, study 115)”, the “fold change of IC50” value in the experiment with indinavir is 0.3; in the experiment with saquinavir, 0.1; with atazanavir, 5.2; with nelfinavir, 0.3; with ritonavir, 0.1.

Turning to “HIV-1 isolate 1025 (protease changes: T12S L19Q K20R M36I L63P I72M V77I, study 115)”, the “fold change of IC50” value amounted to 0.7 in the experiment with indinavir; 0.6 with saquinavir; 0.7 with atazanavir; 0.8 in the experiment with nelfinavir; 0.9 with ritonavir.

As to “HIV-1 isolate 515 (protease changes: L10I L63A I93L, study 115)”, the “fold change of IC50” value in the experiment with indinavir worked out at 0.7; in the experiment with saquinavir it was 0.7; with atazanavir it was 0.7; with nelfinavir, 0.8; with ritonavir, 0.6.

In the case of “HIV-1 isolate 535 (protease changes: D30N E35D M36I N37D L63P H69Q A71V N88D L90M I93L, study 115)”, the “fold change of IC50” value in the experiment with indinavir worked out at 3.4; with saquinavir, 5.6; with atazanavir, 4; with nelfinavir, 91; with ritonavir, 4.3.

Turning to “HIV-1 isolate 1557 (protease changes: none, study 43)”, the “fold change of IC50” value with indinavir, with saquinavir, with atazanavir, in the experiment with nelfinavir and with ritonavir was 1 in each case.

Turning to “HIV-1 isolate 305 (protease changes: L63P V77I I93L, study 115)”, the “fold change of IC50” value in the experiment with indinavir worked out at 0.8; with saquinavir it was 0.5; in the experiment with atazanavir, 0.6; in the experiment with nelfinavir it was 1.1; in the experiment with ritonavir, 0.7.

Regarding “HIV-1 isolate 627 (protease changes: V32I M46I R57G I84V, study 43)”, the “fold change of IC50” value with indinavir is 2; in the experiment with saquinavir, 1; with atazanavir, 6; with nelfinavir it was 2; with ritonavir it was 24.

Turning to “HIV-1 isolate 1307 (protease changes: R57K I62V L63P I64L H69Q V77I I93L, study 115)”, the “fold change of IC50” value came to 1 in the experiment with indinavir; 0.7 with saquinavir; 1.1 in the experiment with atazanavir; 1.2 in the experiment with nelfinavir; 1.2 in the experiment with ritonavir.

As to “HIV-1 isolate 1280 (protease changes: I13V M46I D60E L63P I64V V77I L90M I93L, study 115)”, the “fold change of IC50” value in the experiment with indinavir turned out to be 4.6; in the experiment with saquinavir, 2.1; with atazanavir it was 2.1; with nelfinavir, 23; with ritonavir, 8.2.

For the test system “HIV-1 isolate 1451 (protease changes: I13V K14R K20I E35D R41K H69K V82I I84C L89M, study 115)”, the “fold change of IC50” value with indinavir came out at 1.3; in the experiment with saquinavir it was 18; in the experiment with atazanavir, 3.4; in the experiment with nelfinavir it was 59; in the experiment with ritonavir, 9.9.

Take “HIV-1 isolate 1459 (protease changes: D30N M46I, study 43)”: the “fold change of IC50” value in the experiment with indinavir was found to be 3; with saquinavir, 1; with atazanavir, 3; with nelfinavir, 35; with ritonavir it was 1.

With “HIV-1 isolate 102 (protease changes: K14R I15V D30N L33F R41K D60E Q61N L63T N88D, study 115)”, the “fold change of IC50” value was found to be 0.4 in the experiment with indinavir; 0.6 in the experiment with saquinavir; 0.7 with atazanavir; 12 with nelfinavir; 0.7 in the experiment with ritonavir.

“HIV-1 isolate 92 (protease changes: L19I R41K I50L A71V T74S, study 115)”: the “fold change of IC50” value was found to be 0.4 with indinavir; 0.5 with saquinavir; 7.9 with atazanavir; 0.8 with nelfinavir; 0.2 with ritonavir.

In the case of “HIV-1 isolate 820 (protease changes: I13V I15V D30N E35D M36I K45Q R57K L63P E65D I72T, study 115)”, the “fold change of IC50” value is 0.9 in the experiment with indinavir; 0.8 in the experiment with saquinavir; 1.4 with atazanavir; 4.6 with nelfinavir; 1 with ritonavir.

As for “HIV-1 isolate 500 (protease changes: G16E E35D I62V L63S K70R, study 115)”, the “fold change of IC50” value in the experiment with indinavir turned out to be 0.4; with saquinavir, 0.3; with atazanavir, 0.5; in the experiment with nelfinavir, 0.5; with ritonavir it was 0.6.

On to “HIV-1 isolate 1617 (protease changes: T12S I13V K14T L19V D30N L33V M36I K45Q I64V, study 115)”, for which the “fold change of IC50” value was found to be 0.4 with indinavir; 0.3 with saquinavir; 0.8 with atazanavir; 13 in the experiment with nelfinavir; 0.3 with ritonavir.

“HIV-1 isolate 342 (protease changes: K45L L63P I64L I72V V77I I93L, study 115)”: the “fold change of IC50” value with indinavir was 0.6; with saquinavir, 0.4; with atazanavir, 0.6; with nelfinavir it was 1; in the experiment with ritonavir, 0.5.

“HIV-1 isolate 21 (protease changes: V32I M46I R57G I84V L89M, study 43)”: the “fold change of IC50” value with indinavir amounted to 9; in the experiment with saquinavir, 2; with atazanavir it was 96; with nelfinavir, 8; with ritonavir, 71.

On to “HIV-1 isolate 1033 (protease changes: L10I M46I I54V L63P A71V G73T V82T L90M, study 24)”, for which the “fold change of IC50” value came to 41 with indinavir; 14 in the experiment with saquinavir; 29 in the experiment with atazanavir; 37 with nelfinavir; 77 with ritonavir.

With “HIV-1 isolate 162 (protease changes: K45R I50L L63P A71V G73S V77I I93L, study 115)”, the “fold change of IC50” value stood at 0.5 with indinavir; 0.3 with saquinavir; 9.9 with atazanavir; 1 with nelfinavir; 0.1 in the experiment with ritonavir.

The record behind these values is the supplement of paper PMC3578754.
